From PMC4650826, “Extended Loop Region of Hcp1 is Critical for the Assembly and Function of Type VI Secretion System in Burkholderia pseudomallei” (2015)

Columns and labels:
[1] = target: Hcp1^Q46AE47A, recombinant mutant Hcp1 of Burkholderia pseudomallei (B. pseudomallei); experiment: dynamic light scattering; 8 mg/mL; apparent molecular weight in solution
[2] = target: Hcp1^Q46AE47A, recombinant mutant Hcp1 of Burkholderia pseudomallei (B. pseudomallei); experiment: AUC

Hcp1^Q46AE47A, recombinant mutant Hcp1 of Burkholderia pseudomallei (natural protein)
stoichiometry N [1]: 6 | stoichiometry N [2]: 6
